Data taken from ChEMBL document CHEMBL3861953 (J Med Chem, 2016).

What follows are compounds tested on Legionella pneumophila (assay: Antibacterial activity against Legionella pneumophila axenic forms harboring GFP at 30 uM by spectrophotometric method).

Q: `CCCC(C(=O)O)N1C(=O)/C(=C/c2ccc(N(C)C)c3ccccc23)SC1=S` (stereo not given) was tested. Which Activity did it give?
A: Its Activity is “Active”.

Q: Which Activity does the source give for `Cc1ccc(/C=C2\SC(=S)N([C@H](Cc3c[nH]c4ccccc34)C(=O)O)C2=O)c2ccccc12` here?
A: The Activity was “Active”.

Q: For `CCCCC(C(=O)O)N1C(=O)/C(=C/c2ccc(N(C)C)c3ccccc23)SC1=S` (stereo not given), which Activity is on record?
A: The Activity was “Active”.

Q: Which Activity does the source give for `CN(C)c1ccc(/C=C2\SC(=S)N([C@@H](Cc3c[nH]c4ccccc34)C(=O)O)C2=O)c2ccccc12` here?
A: Its Activity is “Active”.

Q: `O=C(O)[C@H](Cc1c[nH]c2ccccc12)N1C(=O)/C(=C/c2c3ccccc3c(Cl)c3ccccc23)SC1=S` was tested. Which Activity did it give?
A: The Activity was “Active”.

Q: For `CC(C)C[C@H](C(=O)O)N1C(=O)/C(=C/c2ccc(N(C)C)c3ccccc23)SC1=S`, which Activity is on record?
A: Its Activity is “Active”.

Q: `Cc1ccc(/C=C2\SC(=S)N([C@@H](Cc3c[nH]c4ccccc34)C(=O)O)C2=O)c2ccccc12` was tested. Which Activity did it give?
A: The Activity was “Active”.

Q: How did the Activity turn out when `CC(C)C[C@@H](C(=O)O)N1C(=O)/C(=C/c2ccc(N(C)C)c3ccccc23)SC1=S` was run?
A: The Activity was “Active”.

Q: With `CC(C)CC(N1C(=O)/C(=C/c2ccc(N(C)C)c3ccccc23)SC1=S)P(=O)(O)O` (stereo not given) as the compound, how does the Activity read?
A: The Activity was “Active”.

What follows are compounds tested on Mycobacterium tuberculosis (assay: Potency index, ratio of triclosan IC50 to compound IC50 for recombinant Mycobacterium tuberculosis InhA expressed in Escherichia coli Rosetta (DE3) pLysS).

Q: Which Ratio IC50 does the source give for `O=C(O)[C@H](Cc1c[nH]c2ccccc12)N1C(=O)/C(=C/c2c3ccccc3c(Cl)c3ccccc23)SC1=S` here?
A: The Ratio IC50 was 2.

Active and inactive are the calls of the source. The calls are words filed in the database; no cut-off is given here.
